Compound potency records, mixed from different reports. Data source: NIAID ChemDB in PubChem.

All rows: tests in culture; agent: Varicella zoster virus; cells: HEL; endpoint: EC50

Rows are shuffled and stem from different studies.

O=C(O)CP(=O)(O)O ; strain or isolate: Oka CF1743-resistant ; method: cytopathic effect ; result: 28.8 µM
O=c1nc2oc(CCCSc3ccccc3)cc2cn1[C@H]1C[C@H](O)[C@@H](CO)O1 ; strain or isolate: TK+/YS ; method: plaque count ; result: 0.67 µM
CC1(C)[C@@H](CO)CC[C@@]1(C)Cn1cnc2c(Cl)ncnc21 ; strain or isolate: 07/1 (TK-) ; method: cytopathic effect ; result: >50 µg/mL
CN1c2ccc(Cl)cc2C(C)(C)C12C=Nc1c(ccc3ccccc13)O2 ; strain or isolate: 07/1 (TK-) ; method: plaque count ; result: >8.8 µM
CCCCCCOc1ccc(-c2cc3cn([C@H]4C[C@H](O)[C@@H](CO)O4)c(=O)nc3o2)cc1 ; strain or isolate: OKA ; method: cytopathic effect ; result: <0.5 µM
Nc1nc2c(ncn2COCCO)c(=O)[nH]1 ; strain or isolate: YS/R (TK-) ; method: cytopathic effect ; result: 20 µg/mL
Nc1nc(=O)n([C@H]2C[C@H](O)[C@@H](CO)O2)cc1/C=C/Cl ; strain or isolate: OKA (TK+) ; method: plaque count ; result: 0.0034 µM
CC1(C)[C@@H](CCO)C[C@H]1n1nnc2c(=O)[nH]cnc21 ; strain or isolate: TK+/YS ; method: plaque count ; result: >20 µg/mL
COc1ccc2c(c1)OC1(C=C2)N(C)c2ccc(Cl)cc2C1(C)C ; strain or isolate: 07/1 (TK-) ; method: plaque count ; result: 2.5 µM
CO[C@H](CO)[C@@H](O)CCn1ccc(N)nc1=O ; strain or isolate: YS ; method: cytopathic effect ; result: >400 µg/mL
O=c1nc2oc(CCCC3OCCO3)cc2cn1[C@H]1C[C@H](O)[C@@H](CO)O1 ; strain or isolate: OKA ; method: plaque count ; result: >200 µM
CC1(C)[C@@H](CO)CC[C@@]1(C)Cn1cnc2c(N)ncnc21 ; strain or isolate: OKA ; method: cytopathic effect ; result: >50 µg/mL
CCOc1ccc(-c2cc3cn([C@H]4C[C@H](O)[C@@H](CO)O4)c(=O)nc3o2)cc1 ; strain or isolate: YS/R (TK-) ; method: cytopathic effect ; result: >50 µM
CCCCCCOCCCc1cc2cn([C@H]3C[C@H](O)[C@@H](CO)O3)c(=O)nc2o1 ; strain or isolate: OKA ; method: plaque count ; result: 5.9 µM
Nc1nc2c(ncn2CCC(CO)CO)c(=O)[nH]1 ; strain or isolate: OKA (WILD TYPE) ; method: cytopathic effect ; result: 2.2 µM
Nc1nc2c(ncn2CCOCP(=O)(O)O)c(=O)[nH]1 ; strain or isolate: 07/1 (TK-) ; method: plaque count ; result: 0.001 µg/mL
CN1c2ccc([N+](=O)[O-])cc2C(C)(C)C12C=Cc1cc([N+](=O)[O-])ccc1O2 ; strain or isolate: OKA (TK+) ; method: plaque count ; result: 1 µM
O=c1nc2oc(CCOC3CCCCO3)cc2cn1[C@H]1C[C@H](O)[C@@H](CO)O1 ; strain or isolate: YS ; method: plaque count ; result: >40 µM
COc1ccc2c(c1)OC1(C=C2)N(C)c2ccccc2C1(C)C ; strain or isolate: 07/1 (TK-) ; method: plaque count ; result: 5.5 µM
Cc1c(Br)cc(Br)c2ncc(CSCc3ccc(Cl)cc3)n12 ; strain or isolate: YS/R (TK-) ; method: plaque count ; result: 2.9 µg/mL
Nc1nc(F)nc2c1ncn2[C@@H]1C=C(CO)[C@@H](O)[C@H]1O ; strain or isolate: OKA YS ; method: cytopathic effect ; result: 10 µg/mL
O=c1[nH]c(=O)n([C@@H]2O[C@H](CO)[C@@H](O)[C@@H]2O)cc1/C=C/Br ; strain or isolate: OKA (TK+) ; method: plaque count ; result: 0.000074 µM
O=c1[nH]c(=O)n([C@@H]2O[C@H](CO)[C@@H](O)[C@@H]2O)cc1/C=C/Br ; strain or isolate: Oka CF1368-resistant ; method: cytopathic effect ; result: ≥35.5 µM
NC1=NC2C(C=CN2CC(CO)CCO)C(=O)N1 ; strain or isolate: OKA (TK+) ; method: plaque count ; result: 0.0095 µM
Nc1ncnc2c1ncn2C(CF)CCCO ; strain or isolate: YS/R (TK-) ; method: cytopathic effect ; result: >50 µg/mL
O=C(O)P(=O)(O)O ; strain or isolate: 07/1 (TK-) ; method: plaque count ; result: 65.7 µM
CC1(C)[C@@H](CCO)C[C@H]1n1cnc2c(=O)[nH]cnc21 ; strain or isolate: TK+/YS ; method: plaque count ; result: >50 µg/mL
OC[C@H]1O[C@@H](c2cc(C(O)C(I)I)c(F)cc2F)C[C@@H]1O ; strain or isolate: YS/R (TK-) ; method: plaque count ; result: >50 µg/mL
Nc1nc(N)c2ncn(CCOCP(=O)(O)O)c2n1 ; strain or isolate: 07/1 (TK-) ; method: plaque count ; result: 5.2 µM
Cc1c(Br)cc(Br)c2ncc(CSCc3ccccc3)n12 ; strain or isolate: YS/R (TK-) ; method: plaque count ; result: >20 µg/mL
CC1(C)[C@@H](CO)CC[C@@]1(C)Cn1ccc(=O)[nH]c1=O ; strain or isolate: 07/1 (TK-) ; method: cytopathic effect ; result: >50 µg/mL
CC#Cc1cn([C@@H]2O[C@H](CO)[C@@H](O)[C@@H]2O)c(=O)[nH]c1=O ; strain or isolate: 07/1 (TK-) ; method: plaque count ; result: >177 µM
Nc1ncnc2c1ncn2CC[C@H](O)CCO ; strain or isolate: YS ; method: cytopathic effect ; result: >400 µg/mL
CCc1ccc(OCCCc2cc3cn([C@H]4C[C@H](O)[C@@H](CO)O4)c(=O)nc3o2)cc1 ; strain or isolate: TK+/YS ; method: plaque count ; result: 2.8 µM
Cc1ccc(CSCc2cnc3c(Br)cc(Br)c(C)n23)cc1 ; strain or isolate: YS/R (TK-) ; method: plaque count ; result: >20 µg/mL
CN1c2ccccc2C(C)(C)C12C=Nc1c(ccc3ccccc13)O2 ; strain or isolate: YS (TK+) ; method: plaque count ; result: 4.7 µM
Nc1nc2ncn(CCOCP(=O)(O)O)c2c(=O)[nH]1 ; strain or isolate: YS/R (TK-) ; method: plaque count ; result: 0.05 µg/mL
CCCCCCCOc1ccc(-c2cc3cn([C@H]4C[C@H](O)[C@@H](CO)O4)c(=O)nc3o2)cc1 ; strain or isolate: 07/1 (TK-) ; method: cytopathic effect ; result: >50 µM
CCOC(=O)/C=C\C=C\[C@H]1O[C@@H](n2ccc(=O)[nH]c2=O)[C@H](O)[C@@H]1O ; strain or isolate: YS/R ; result: 10 µM
Cc1c(Br)cc(Br)c2ncc(CSCc3cccs3)n12 ; strain or isolate: YS (TK+) ; method: plaque count ; result: >2 µg/mL
Nc1ncnc2c1ncn2[C@@H]1C[C@H](CO)[C@@H](O)[C@@H]1O ; strain or isolate: OKA-H12 ; method: plaque count ; result: 1.2 µg/mL
Nc1ccn(CC[C@H](O)CCO)c(=O)n1 ; strain or isolate: YS/R (TK-) ; method: cytopathic effect ; result: >400 µg/mL
O=c1nc2oc(CCCCOc3ccccc3)cc2cn1[C@H]1C[C@H](O)[C@@H](CO)O1 ; strain or isolate: (TK-)07/1 ; method: plaque count ; result: >200 µM
Nc1ncnc2c1ncn2C[C@@H](CO)OCP(=O)(O)O ; strain or isolate: YS/R (TK-) ; method: plaque count ; result: 0.014 µM
O=C(O)CP(=O)(O)O ; strain or isolate: YS-V10 H12 ; method: plaque count ; result: 7.1 µg/mL
CC1(C)[C@@H](CCO)C[C@H]1n1nnc2c(N)ncnc21 ; strain or isolate: (TK-)/YS/R ; method: plaque count ; result: >20 µg/mL
CCCOc1ccc(-c2cc3cn([C@H]4C[C@H](O)[C@@H](CO)O4)c(=O)nc3o2)cc1 ; strain or isolate: 07/1 (TK-) ; method: cytopathic effect ; result: >50 µM
Nc1ncnc2c1ncn2C[C@H](O)CO ; strain or isolate: OKA ; method: cytopathic effect ; result: 70 µg/mL
CCCOCCOCCCc1cc2cn([C@H]3C[C@H](O)[C@@H](CO)O3)c(=O)nc2o1 ; strain or isolate: YS/R (TK-) ; method: plaque count ; result: >200 µM
Cc1cccn2c(CSCc3ccccc3)cnc12 ; strain or isolate: YS (TK+) ; method: plaque count ; result: 0.3 µg/mL
O=C(O)P(=O)(O)O ; strain or isolate: Clinical isolate VZV-12 ; method: cytopathic effect ; result: 93.6 µM
CO[C@H](CO)[C@@H](O)CCn1cnc2c(N)ncnc21 ; strain or isolate: OKA ; method: cytopathic effect ; result: >400 µg/mL
Nc1nc(=O)n([C@@H]2O[C@H](CO)[C@@H](O)[C@@H]2F)cc1I ; strain or isolate: YS (TK+) ; method: plaque count ; result: 0.14 µM
Nc1nccc2c1ncn2C[C@@H](CO)OCP(=O)(O)O ; strain or isolate: YS/R (TK-) ; method: plaque count ; result: 0.06 µg/mL
Nc1ncnc2c1ncn2CCCC(O)CF ; strain or isolate: 07-01/TK- ; method: cytopathic effect ; result: >50 µg/mL
OC[C@H]1O[C@@H](c2cc(C(O)CI)c(F)cc2F)C[C@@H]1O ; strain or isolate: OKA (TK+) ; method: plaque count ; result: 100 µg/mL
CCOP(=O)(O)COCCn1cnc2c(=O)[nH]c(N)nc21 ; strain or isolate: OKA (TK+) ; method: plaque count ; result: 0.008 µg/mL
O=c1c2ncn(COC(CO)CO)c2nc2[nH]c(-c3ccccc3)cn12 ; strain or isolate: YS ; method: plaque count ; result: 3 µg/mL
Cc1cn(C(CF)CCCO)c(=O)[nH]c1=O ; strain or isolate: YS/R (TK-) ; method: cytopathic effect ; result: >50 µg/mL
CC1(C)[C@@H](CCO)C[C@H]1n1cnc2c(N)ncnc21 ; strain or isolate: (TK-)/YS/R ; method: plaque count ; result: >20 µg/mL
CC1(C)[C@@H](CO)CC[C@@]1(C)Cn1nnc2c(N)ncnc21 ; strain or isolate: 07/1 (TK-) ; method: cytopathic effect ; result: >50 µg/mL

Again, the opening 5 rows:

O=C(O)CP(=O)(O)O ; strain or isolate: Oka CF1743-resistant ; method: cytopathic effect ; result: 28.8 µM
O=c1nc2oc(CCCSc3ccccc3)cc2cn1[C@H]1C[C@H](O)[C@@H](CO)O1 ; strain or isolate: TK+/YS ; method: plaque count ; result: 0.67 µM
CC1(C)[C@@H](CO)CC[C@@]1(C)Cn1cnc2c(Cl)ncnc21 ; strain or isolate: 07/1 (TK-) ; method: cytopathic effect ; result: >50 µg/mL
CN1c2ccc(Cl)cc2C(C)(C)C12C=Nc1c(ccc3ccccc13)O2 ; strain or isolate: 07/1 (TK-) ; method: plaque count ; result: >8.8 µM
CCCCCCOc1ccc(-c2cc3cn([C@H]4C[C@H](O)[C@@H](CO)O4)c(=O)nc3o2)cc1 ; strain or isolate: OKA ; method: cytopathic effect ; result: <0.5 µM

ECn: concentration that inhibits the pathogen or its effect by n%.